A mixed list of measured activities; the numbers were collected in NIAID ChemDB.

Common to all: whole-cell or culture tests; organism: Junin virus

ECn is the concentration giving n% inhibition of infection, replication or growth. Blank or dashed fields: not listed here. Conditions beyond the fields shown may differ between rows.

smiles | read-out | strain or isolate | cell line | result
CC[C@@H](C(C)C)[C@@H](O)[C@H](O)[C@@H](C)[C@H]1CC[C@H]2[C@@H]3CC(=O)[C@@]4(O)C[C@H](O)[C@H](O)C[C@]4(C)[C@H]3CC[C@]12C | EC50 | IV4454 | VERO | 0.2 µM
Nc1nc(F)nc2c1ncn2[C@@H]1C=C(CO)[C@@H](O)[C@H]1O | EC50 |  | VERO | 0.6 µg/mL
Cc1cn([C@@H]2O[C@H](CO)[C@](O)(C(F)(F)F)[C@H]2O)c(=O)[nH]c1=O | EC50 |  | VERO | >50 µg/mL
Nc1ccn(C(CF)CCCO)c(=O)n1 | EC50 |  | VERO | >50 µg/mL
C[C@@]1(O)[C@@H](CO)O[C@@H](n2cnc3c(N)ncnc32)[C@@H]1O | EC50 |  | VERO | 10 µg/mL
C=C[C@H](O)C1=C[C@@H](n2cnc3c(N)ncnc32)[C@H](O)[C@@H]1O | EC50 |  | VERO | >50 µg/mL
CC[C@@H](C(C)C)[C@@H](O)[C@H](O)[C@@H](C)[C@H]1CC[C@H]2[C@@H]3CC(=O)[C@H]4C[C@H](O)[C@H](O)C[C@]4(C)[C@H]3CC[C@]12C | EC50 | IV4454 | VERO | 11.5 µM
Nc1ccn([C@@H]2C[C@H](CO)[C@@H](O)[C@H]2O)c(=O)n1 | EC50 |  | VERO | 0.2 µg/mL
CC[C@@H](C(C)C)[C@H](O)[C@@H](O)[C@@H](C)[C@H]1CC[C@H]2[C@@H]3CC(=O)[C@H]4C[C@@H](Br)CC[C@]4(C)[C@H]3CC[C@]12C | EC50 | IV4454 | VERO | 4.8 µM
Nc1ncnc2c1ncn2[C@@H]1C=C[C@@H](O)[C@H]1O | MIC |  |  | 1 µg/mL
Nc1nc2c(ncn2CCCC(O)CF)c(=O)[nH]1 | EC50 |  | VERO | >200 µg/mL
Nc1nccc2c1ncn2[C@@H]1C=C[C@@H](O)[C@H]1O | MIC |  |  | 2 µg/mL
CC[C@@H](C(C)C)[C@@H](O)[C@H](O)[C@@H](C)[C@H]1CC[C@H]2[C@@H]3CC(=O)[C@H]4C[C@@H](OC(C)=O)CC[C@]4(C)[C@H]3CC[C@]12C | EC50 | IV4454 | VERO | 6.1 µM
Nc1nccc2c1ncn2[C@@H]1CC[C@@H](O)[C@H]1O | MIC |  |  | 0.01 µg/mL
CC[C@@H](C(C)C)[C@H](O)[C@@H](O)[C@@H](C)[C@H]1CC[C@H]2[C@@H]3CC(=O)[C@@]4(O)C[C@H](O)[C@H](O)C[C@]4(C)[C@H]3CC[C@]12C | EC50 | IV4454 | VERO | 1.6 µM
Nc1ncnc2c1ncn2[C@@H]1CC[C@@H](O)[C@H]1O | MIC |  |  | 0.01 µg/mL
CC[C@@H](C(C)C)[C@@H](O)[C@H](O)[C@@H](C)[C@H]1CC[C@H]2[C@@H]3CC(=O)[C@@]4(O)C[C@@H](OC(C)=O)CC[C@]4(C)[C@H]3CC[C@]12C | EC90 | IV4454 | VERO | 29.6 µM
C#C[C@H](O)C1=C[C@@H](n2cnc3c(N)ncnc32)[C@H](O)[C@@H]1O | EC50 |  | VERO | >50 µg/mL

Repeating the final 2 entries:

{"smiles": "CC[C@@H](C(C)C)[C@@H](O)[C@H](O)[C@@H](C)[C@H]1CC[C@H]2[C@@H]3CC(=O)[C@@]4(O)C[C@@H](OC(C)=O)CC[C@]4(C)[C@H]3CC[C@]12C", "read-out": "EC90", "strain or isolate": "IV4454", "cell line": "VERO", "result": "29.6 µM"}
{"smiles": "C#C[C@H](O)C1=C[C@@H](n2cnc3c(N)ncnc32)[C@H](O)[C@@H]1O", "read-out": "EC50", "cell line": "VERO", "result": ">50 µg/mL"}